# Test results from patent US20250179125A1 (University of Washington, priority 2021, published 2025).
# Square brackets hold non-standard residues; d marks the D form. Peptide text beside a SMILES is read from it.
# Assay: Peptide grafting to PDA-coated polypropylene plates (BCA assay)
# Details: PDA-coated 96 well PP plates, same concentration
smiles,measurement,value
"CSCC[C@H](NC(=O)[C@@H](CCCCN)NC(=O)[C@H](CC(C)C)NC(=O)[C@@H](CC(N)=O)NC(=O)[C@H](CCSC)NC(=O)[C@H](NC(=O)[C@H](Cc1c[nH]c2ccccc12)NC(=O)CNC(=O)[C@H](CO)NC(=O)[C@H](Cc1ccc(O)cc1)NC(=O)[C@H](CCC(=O)O)NC(=O)[C@H](CC(N)=O)NC(=O)[C@H](CCSC)NC(=O)[C@@H](Cc1c[nH]c2ccccc12)NC(=O)[C@H](CO)NC(=O)[C@@H](CC(C)C)NC(=O)[C@H](CC(N)=O)NC(=O)[C@@H](CCSC)NC(=O)[C@H](CCC(=O)O)NC(=O)CNC(=O)[C@H](CCCNC(=N)N)NC(C)=O)[C@H](C)O)C(=O)NCC(=O)N[C@@H](CCCNC(=N)N)C(N)=O [AP90, Ac-RGEmNlSwMNEYSGWtMnLkMGR-NH2] (Ac-RGE[dM]N[dL]S[dW]MNEYSGW[dT]M[dN]L[dK]MGR-NH2)",coupling efficiency,46%
